# PSTVd loop 6 mutant pool in Nicotiana benthamiana

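Three N. benthamiana plants were inoculated with the whole mutant pool. Samples came from the inoculated region at 5 days, the leaf margin at 10 and upper systemic leaves at 12.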

Region: loop 6 of PSTVd (intermediate strain), upper and lower strand joined, each 5' to 3', the first 5 letters being the upper strand, closing pairs included. Wild type: UGACCGCGAG. Varied positions (N): UNNNCGNNNG.

Values are reads per thousand in the sample; higher means more abundant, 0 means not found.
Each value is the mean of three plants.
"Pool" is the share in the plasmid pool used as inoculum, on the same scale.
The inoculated region was read from the minus strand, the other sites from the plus strand.
The authors trace changes outside the varied positions to PCR and sequencing errors or to mutation in the plant; presence does not show that a variant is infectious alone.
Wild type was 20.7 per thousand in the pool and the most common sequence in every sample (inoculated region 195, 198, 203; leaf margin 629, 591, 734; systemic leaves 942, 870, 868).
With 36,220-57,551 reads a sample, very low values are single reads.

| sequence | pool | inoculated region | leaf margin | systemic leaves |
|---|---|---|---|---|
| UAAACGUGAG | 0.248 | 0.607 | 0.126 | 0 |
| UAACCGGAGU | 0.0131 | 0 | 0 | 0 |
| UAACCGUAAG | 0.0392 | 0.624 | 0.0667 | 0.0535 |
| UACGCGAAUG | 0.314 | 0.0710 | 0 | 0 |
| UACUCGCUGG | 0.144 | 0.0708 | 0.00773 | 0 |
| UAGUCGCUCG | 0.327 | 0.100 | 0.00773 | 0 |
| UAGUCGGUGG | 0.235 | 0.0716 | 0 | 0 |
| UAUCCGGCAG | 0.183 | 0.0775 | 0 | 0 |
| UAUGCGUUGG | 0.275 | 0.0663 | 0.00773 | 0 |
| UCACCGCGCG | 0.118 | 0.631 | 0.0831 | 0.0474 |
| UCCGCGAGAG | 0.248 | 0.0719 | 0 | 0 |
| UCCGCGCCAG | 0.183 | 0.124 | 0.00773 | 0 |
| UCCGCGGCCG | 0.131 | 0.0885 | 0.00773 | 0 |
| UCCGCGGCUG | 0.222 | 0.0721 | 0.0155 | 0 |
| UCCGCGGGCG | 0.196 | 0.0656 | 0.0232 | 0 |
| UCCGCGUUCG | 0.222 | 0.0832 | 0.0261 | 0 |
| UCCGCGUUGG | 0.275 | 0.0823 | 0 | 0 |
| UCGGCGGCUG | 0.248 | 0.0715 | 0.00920 | 0 |
| UCUACGGGCG | 0.288 | 0.684 | 0.135 | 0 |
| UCUCCGUUAG | 0.379 | 0.0650 | 0 | 0 |
| UGAACGCGCG | 0.105 | 0.127 | 0.0155 | 0 |
| UGACCGAUAG | 0.471 | 0.473 | 10.8 | 0.139 |
| UGCACGAGGG | 0.157 | 0.0955 | 0.00773 | 0 |
| UGCCCGGCGG | 0.183 | 0.131 | 0 | 0 |
| UGCGCGAUCG | 0.209 | 0.113 | 0.00773 | 0 |
| UGCGCGUACG | 0.288 | 0.0775 | 0.00773 | 0 |
| UGGACGCUGG | 0.157 | 0.0955 | 0.0155 | 0 |
| UGGCCGGGGG | 0.183 | 0.161 | 0 | 0 |
| UGGGCGGUUG | 0.275 | 0.0710 | 0.00773 | 0 |
| UGUACGCCAG | 0.261 | 0.0719 | 0.00920 | 0 |
| UGUACGUCGG | 0.301 | 0.0829 | 0 | 0 |
| UGUCCGUGAG | 0.327 | 0.620 | 0.0522 | 0 |
| UGUGCGGAAG | 0.118 | 0.0592 | 0.00920 | 0.0337 |
| UGUUCGCGGG | 0.196 | 0.0645 | 0.00773 | 0 |
| UGUUCGGGGG | 0.209 | 0.0475 | 0.00773 | 0 |
| UUAACGAGCG | 0.196 | 0.590 | 0.0698 | 0 |
| UUAGCGCUAG | 0.170 | 0.0598 | 0.0169 | 0 |
| UUAUCGAUUG | 0.366 | 0.0771 | 0 | 0 |
| UUAUCGUCUG | 0.301 | 0.0779 | 0 | 0 |
| UUCACGGCCG | 0.261 | 0.568 | 0.0931 | 0 |
| UUGACGAAGG | 0.157 | 0.0299 | 0 | 0 |
| UUGCCGGGGG | 0.235 | 0.0594 | 0 | 0 |
| UUGCCGUUGG | 0.248 | 0.0656 | 0 | 0 |
| UUGUCGUCCG | 0.288 | 0.155 | 0.00773 | 0 |
| UUUGCGUUAU | 0.0131 | 0 | 0 | 0 |
| UUUUCGCGGG | 0.248 | 0.0768 | 0 | 0 |

The last 3 entries again:

| sequence | pool | inoculated region | leaf margin | systemic leaves |
|---|---|---|---|---|
| UUGUCGUCCG | 0.288 | 0.155 | 0.00773 | 0 |
| UUUGCGUUAU | 0.0131 | 0 | 0 | 0 |
| UUUUCGCGGG | 0.248 | 0.0768 | 0 | 0 |

Values reported by Wu et al. 2024 (doi:10.1371/journal.ppat.1012142).